Four compounds from PMC9784969, “SARS-CoV-2 Inhibitors Identified by Phenotypic Analysis of a Collection of Viral RNA-Binding Molecules” (Pharmaceuticals, 2022) can be followed below.

The nature of one data set: in vitro. Conditions: African green monkey, uninfected Vero E6 cells.
The next data set concerns Vero E6 cells. As to conditions: African green monkey.
Another data set has as its system 293T-ACE2 cells. As to conditions: human.

Regarding `CCN(CC)CCNc1cc(-c2cccs2)nc2ccccc12` [1d], the midpoint of cytotoxicity in “in vitro”, the CC50 at 2 days, lay at 6.86 µM.

Turning to `CCC(=C(c1ccc(OC)cc1)c1ccc(OC)cc1)c1cn(CC(O)CN(C)C)c2ccccc12` (stereo not drawn) [Bisphenylindol], the CC50 – broadly, the concentration that lowers cell viability or growth by half – at 2 days in “in vitro” amounted to 5.58 µM.

Take Cis-clomiphene: the CC50 in the data set with Vero E6 cells was determined as 6.86 µM; in the data set with 293T-ACE2 cells it was 6.87 µM.

As for Trans-clomiphene, the CC50 in the data set on Vero E6 cells is 5.58 µM; in the data set with 293T-ACE2 cells it was 47.1 µM.
